Tests used:
[1] = biological target: T1, C-reactive protein (CRP), endogenous in human patient serum (human (endogenous in serum), UniProt P02741 19-224); assay: cell-based or functional assay
T1 sequence (looked up): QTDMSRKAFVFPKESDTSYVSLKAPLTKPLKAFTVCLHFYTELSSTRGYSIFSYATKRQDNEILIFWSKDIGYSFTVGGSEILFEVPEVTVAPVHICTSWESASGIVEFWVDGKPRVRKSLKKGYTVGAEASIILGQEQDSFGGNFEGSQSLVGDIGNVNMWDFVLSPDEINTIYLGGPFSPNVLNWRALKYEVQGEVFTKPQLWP

[2] = biological target: T2, C-reactive protein (CRP), human, purified (Sigma) (human, UniProt P02741 19-224); assay: ELISA; competition; 0.8 ug CRP immobilised; 0.8 ug C1q with increasing L-ficolin or 0.8 ug L-ficolin with increasing C1q; MBS, 0.05% Tween-20, 1% HSA, pH 6.5, 2 mM calcium; conditions: both partners purified
T2 construct: human C-reactive protein, bought from Sigma; purity checked by SDS PAGE and mass spectrometry; source: bought: Sigma
T2 sequence (looked up): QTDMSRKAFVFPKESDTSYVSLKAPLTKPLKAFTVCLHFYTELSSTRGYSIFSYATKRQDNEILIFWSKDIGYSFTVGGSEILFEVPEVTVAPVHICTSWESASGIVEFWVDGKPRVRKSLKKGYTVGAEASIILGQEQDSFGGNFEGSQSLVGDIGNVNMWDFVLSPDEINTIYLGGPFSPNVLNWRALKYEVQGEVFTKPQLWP

B1: L-ficolin (natural protein, human, UniProt Q15485 26-313, looked up)
chain: LQAADTCPEVKMVGLEGSDKLTILRGCPGLPGAPGPKGEAGTNGKRGERGPPGPPGKAGPPGPNGAPGEPQPCLTGPRTCKDLLDRGHFLSGWHTIYLPDCRPLTVLCDMDTDGGGWTVFQRRVDGSVDFYRDWATYKQGFGSRLGEFWLGNDNIHALTAQGTSELRVDLVDFEDNYQFAKYRSFKVADEAEKYNLVLGAFVEGSAGDSLTFHNNQSFSTKDQDNDLNTGNCAVMFQGAWWYKNCHVSNLNGRYLRGTHGSFANGINWKSGKGYNYSYKVSEMKVRPA
notes: L-ficolin (ficolin-2), human, native, 35 kDa on SDS PAGE; Native oligomer; also called native L-ficolin; source: purified from human serum; endogenous, human serum (co-IP)
C3 deposition on P. aeruginosa by flow cytometry (anti-C3d), whole patient serum against whole normal serum, after subtracting CRP- and ficolin-depleted serum [1]: 7 fold | fold change of binding, infection-inflammation against physiological condition [2]: 5 fold
